Anti-infective test results gathered from many reports (values: NIAID ChemDB through PubChem).

Shared fields: tests in culture; agent: Aspergillus niger; measure: MIC100

A number after MIC or MFC names an inhibition level or a share of isolates.

structure	strain	value
O=C1CSC(N2N=C(c3cccc(F)c3)CC2c2cc3ccccc3nc2Cl)=N1	MTCC 282	500 µg/mL
Cn1c(=O)ccc2c3sc(N4CCN(C(c5ccccc5)c5ccccc5)CC4)nc3ccc21	MTCC 282	200 µg/mL
FC(F)(F)c1nc(OCc2nc(-c3ccco3)n[nH]2)c2ccccc2n1	MTCC 282	12.5 µg/mL
Cc1ccc(-c2nc3ccccc3c(=O)n2-c2ccc(CONN)cc2)cc1	MTCC 282	>1000 µg/mL
COc1ccc(N2CCN(c3nc4ccc5c(ccc(=O)n5C)c4s3)CC2)cc1	MTCC 282	50 µg/mL
CC(=O)Nc1ccc(OCC(=O)N2N=C(c3nc4ccccc4[nH]3)CC2c2ccc(O)cc2)cc1	MTCC 282	500 µg/mL
Cc1nc(OCc2nc(-c3ccccc3)n[nH]2)c2ccccc2n1	MTCC 282	12.5 µg/mL
CC1CC(C)CN(c2nc3ccc4c(ccc(=O)n4C)c3s2)C1	MTCC 282	62.5 µg/mL
COc1cccc(C2CC(c3nc4ccccc4[nH]3)=NN2C(=O)COc2ccc(NC(C)=O)cc2)c1	MTCC 282	500 µg/mL
O=c1ccc2c(ccc3nc(N4CCN(Cc5ccccc5)CC4)sc32)o1	MTCC 282	500 µg/mL
CC(=O)Nc1ccc(OCC(=O)N2N=C(c3nc4ccccc4[nH]3)CC2c2cccc(Cl)c2)cc1	MTCC 282	500 µg/mL
Cn1c(=O)ccc2c3sc(N4CCN(c5cccc(C(F)(F)F)c5)CC4)nc3ccc21	MTCC 282	50 µg/mL
O=C1CSC(N2N=C(c3ccccc3O)CC2c2cc3ccccc3nc2Cl)=N1	MTCC 282	1000 µg/mL
CC(=O)Nc1ccc(OCC(=O)N2N=C(c3nc4ccccc4[nH]3)CC2c2ccccc2Cl)cc1	MTCC 282	50 µg/mL
COc1ccc(/C=C2\SC(c3ccc(F)cc3)N(NC(=O)c3ccc(-n4c(-c5ccc(C)cc5)nc5ccccc5c4=O)cc3)C2=O)cc1	MTCC 272	100 µg/mL
O=C1CSC(N2N=C(c3ccccc3)CC2c2cc3ccccc3nc2Cl)=N1	MTCC 282	1000 µg/mL
Cc1ccc(-c2nc3ccccc3c(=O)n2-c2ccc(C(=O)NN3C(=O)/C(=C/c4ccccc4[N+](=O)[O-])SC3c3ccc(F)cc3)cc2)cc1	MTCC 282	500 µg/mL
O=C1CSC(N2N=C(c3ccc(O)cc3)CC2c2cc3ccccc3nc2Cl)=N1	MTCC 282	500 µg/mL
Cc1nc(OCc2nc(-c3ccc(O)cc3)n[nH]2)c2ccccc2n1	MTCC 272	25 µg/mL
O=c1ccc2c(ccc3nc(N4CCC(Cc5ccccc5)CC4)sc32)o1	MTCC 282	200 µg/mL
COc1ccc(-c2n[nH]c(COc3nc(C)nc4ccccc34)n2)cc1OC	MTCC 282	12.5 µg/mL
COc1cc(/C=C2\SC(c3ccc(F)cc3)N(NC(=O)c3ccc(-n4c(-c5ccc(C)cc5)nc5ccccc5c4=O)cc3)C2=O)cc(OC)c1OC	MTCC 282	500 µg/mL

3 of the rows above, restated:

structure,strain,value
O=C1CSC(N2N=C(c3cccc(F)c3)CC2c2cc3ccccc3nc2Cl)=N1,MTCC 282,500 µg/mL
CC(=O)Nc1ccc(OCC(=O)N2N=C(c3nc4ccccc4[nH]3)CC2c2ccc(O)cc2)cc1,MTCC 282,500 µg/mL
O=c1ccc2c(ccc3nc(N4CCN(Cc5ccccc5)CC4)sc32)o1,MTCC 282,500 µg/mL

Conditions beyond the fields shown may differ between rows.